Tested on: Mycobacterium tuberculosis H37 Rv
Assay: Therapeutic effect on mice experimentally infected with tuberculosis (FIG. 1, groups of 20 mice)
Conditions: for 38 days from the beginning of the treatment; oral, 200 μg/mouse, once a day, six days a week

Structure (SMILES): CCOc1c(N2CCN(CC(C)C)CC2)ccc2nc3c4c5c6c(C)c(O)c4c(=O)c(c-3oc12)NC(=O)C(C)=CC=CC(C)C(O)C(C)C(O)C(C)C(OC(C)=O)C(C)C(OC)C=COC(C)(O6)C5=O (stereo not shown) [Derivative No. 8]
- dead mice: there was not observed any dead mouse

Source: patent US4965261A, “Substituted benzoxazinorifamycin derivative and antibacterial agent containing the same” (Kanegafuchi Kagaku Kogyo Kabushiki Kaisha, priority 1988, dated 1990)
